This note sets out measurements from paper PMC8828479, “Broadly neutralizing antibodies target a haemagglutinin anchor epitope” (Nature, 2021).

The test concerns the target H5 HA (A/Indonesia/5/2005) (Influenza A virus A/Indonesia/5/2005 …, UniProt A5A5L7). The test is described as follows: negative-stain EM; […] 2D class averages and 3D reconstructions. To be noted: both partners purified.

B1: 222-1C06 Fab (Fab, V domains shown)
VH: EVQLVESGGDLVQPGGSLRLSCVVSGFTFSTYSMNWVRQAPGKGLEWVSYISSSSLSRYYADSVKGRFTISRDNAKNSLSLQLNSLRAEDTAVYYCVRGSITWPTEYYLDYWGQGTLVTVSS
VL: EIVMTQSPATLSVSPGERATLSCRASQTIRSDLAWYQQKPGQPPRLIIYGASTRATGIPARFSGSGSGTEFTLTISSLQSEDSAVYFCQQYNNWPPLTFGGGTKVEIK
Turning to B1, the binding result was “binds”.
